HIV-1 LAI Vif substitutions under APOBEC3G selection

From the data files of Langley et al. 2025, preprint, doi:10.1101/2025.10.20.683452.

Vif of LAI (a laboratory-adapted subtype B strain), residues 12-115; positions count from the first residue of the whole protein:
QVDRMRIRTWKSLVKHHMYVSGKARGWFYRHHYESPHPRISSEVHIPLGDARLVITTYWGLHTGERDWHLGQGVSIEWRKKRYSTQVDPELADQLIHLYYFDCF

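Pooled viruses with one designed change each in Vif went through two 72 h rounds in SupT1 cells expressing APOBEC3G. Each of three replicates was sequenced after round two and set against the merged round-one pool. Changes do not touch integrase, since the pol overlap was removed.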

Scale: log2 enrichment, wild type = 0; negative values mean that the variant was depleted. Each entry names the wild-type residue, its position and the residue put in its place. All changes here are to methionine. The median of three replicates is given, with the replicates in brackets. Input reads are the counts in the merged round-one pool, before selection. Some changes are missing from the data or left out. The authors note that some positive scores may be noise, and some enriched variants failed when tested singly. The scan is noisy: the rank correlation of replicates is about 0.4 to 0.65, and variants with under about 50 input reads tend to read too high.

Y111M (input reads 172) gave -0.69 (-0.69 / -3.10 / 0.32).
F112M (input reads 219) gave -2.43 (3.32 / -3.98 / -2.43).
D113M (input reads 268) gave -1.03 (-1.03 / -0.84 / -3.59).
F115M (input reads 128) gave -0.74 (1.71 / -1.52 / -0.74).